This assay has as its target Staphylococcus aureus enterotoxin B (SEB) (Staphylococcus aureus, UniProt P01552). In words: Cytokine synthesis by PBL after I2-treated SEB (ELISA of IL-6 and IFN-γ). The format is cell-based. The settings on record: SEB treated with I2, PBL.

Protein sequences, listed by entry. Tags and fused reporters are not part of them. Residues count along the entry.
UniProt P01552, 28-266 limits assumed: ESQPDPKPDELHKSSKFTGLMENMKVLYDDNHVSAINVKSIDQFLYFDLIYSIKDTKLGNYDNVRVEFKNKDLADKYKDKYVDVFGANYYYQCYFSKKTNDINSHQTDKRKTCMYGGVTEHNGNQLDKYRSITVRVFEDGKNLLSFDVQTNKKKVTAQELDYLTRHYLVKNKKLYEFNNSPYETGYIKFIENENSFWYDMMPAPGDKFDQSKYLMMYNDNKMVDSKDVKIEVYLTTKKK

Molecules are shown by their SMILES. A value given as a limit tells only on which side of the number the result lay.

Consider `II`, for which the “I2 concentration that inhibits superantigen activation of T-cell cytokine synthesis” value is more than 25 ppm.

Values taken from patent US8691290B2 (priority 2006, dated 2014).
